Broadly, the stoichiometry N is a count of units in the complex or per binding partner. Broadly, the Kd is the free concentration of one partner at which half of the binding sites on the other are occupied at equilibrium, for simple one-to-one binding.

For series [1], the target named is HitR WT (B. anthracis). As to the kind of experiment: SEC. In general terms: Size exclusion chromatography separates by hydrodynamic size, large species first.
For series [2], the target named is HitR WT (B. anthracis). As to the kind of experiment: MST.
Series [3] has as its system HitR M58I (Bacillus anthracis). In words: EMSA. In general terms: A gel shift assay detects complexes by their altered migration in electrophoresis.
Series [4] relates to HitR E203A (Bacillus anthracis). As to the kind of experiment: EMSA.
In series [5] the test system is HitR K168A (Bacillus anthracis). In words: EMSA.
The test system of series [6] is HitR WT (Bacillus anthracis). As to the kind of experiment: EMSA.

In the case of HitR WT (natural protein), in the series with HitR WT (B. anthracis) [1], the percent dimer turned out to be 45%, the percent monomer came to 55% and the stoichiometry N turned out to be 2.
Consider “HitS WT, intracellular region (residue 68 to 352) (domain or fragment)”, for which, in the series with HitR WT (B. anthracis) [2], the Kd is 0.385 µM. This lies in the sub-micromolar range.
For “HitS WT, intracellular region (residue 68 to 352), autophosphorylated (domain or fragment)”, the Kd with HitR WT (B. anthracis) [2] stood at 0.27 µM.
With hitPRS promoter 202 bp, the binding signal (fold higher affinity than WT) in series [3] came out at 5; in series [4] it was 10; in series [5], 10. This substance yielded a dissociation constant Kd in series [6] of 0.055 µM.

The values are drawn from article PMC7790381, “Directed evolution reveals the mechanism of HitRS signaling transduction in Bacillus anthracis” (2020).
